Target: BoNT/A LC (Clostridium botulinum, UniProt P0DPI0)

Protein sequences, listed by entry. Tags and fused reporters are not part of them. Residues count along the entry.
UniProt P0DPI0, 2-448 limits assumed: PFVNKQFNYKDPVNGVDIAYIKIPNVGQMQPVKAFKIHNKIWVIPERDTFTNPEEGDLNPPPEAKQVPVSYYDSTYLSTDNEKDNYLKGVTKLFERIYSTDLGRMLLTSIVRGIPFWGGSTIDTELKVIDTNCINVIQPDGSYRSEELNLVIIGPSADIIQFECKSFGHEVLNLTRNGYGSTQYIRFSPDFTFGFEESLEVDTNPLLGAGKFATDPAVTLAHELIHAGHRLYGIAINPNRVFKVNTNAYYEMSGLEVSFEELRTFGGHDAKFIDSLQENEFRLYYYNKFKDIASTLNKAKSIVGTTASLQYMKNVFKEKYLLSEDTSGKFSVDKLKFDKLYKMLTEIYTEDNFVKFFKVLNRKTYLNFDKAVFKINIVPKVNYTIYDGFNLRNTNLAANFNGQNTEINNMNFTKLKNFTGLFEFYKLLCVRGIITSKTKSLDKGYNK

## Nc1ccc(S(=O)(=O)Nc2ncccn2)cc1 [sulfadiazine]
  inhibition of BoNT/A LC (in words): no inhibition was observed

Reference: US7574340B2 (priority 2003, dated 2009)
